Measured values from several laboratories, pooled; numbers as filed in NIAID ChemDB.

All rows: enzyme or target tests

Fold resistance: result on the changed form divided by that on wild type. Blank or dashed fields: not listed here. ICn: concentration for n% inhibition. Lines come from different laboratories, so protocols vary. Inhibition is in % at the dose shown (toxicity tests: loss of growth or viability).

| SMILES | changes | target | read by | read-out | dose | result |
|---|---|---|---|---|---|---|
| CSc1sc(C(N)=O)c2c1-c1nocc1CC2 | - | Protein kinase C | - | IC50 | - | >30 µM |
| NC(N)=NCCC[C@H](N)C(=O)NC[C@@H]1OC(O[C@H]2[C@@H](O)[C@H](O[C@@H]3[C@@H](O)[C@H](NC(=O)[C@@H](N)CCCN=C(N)N)C[C@H](NC(=O)[C@@H](N)CCCN=C(N)N)[C@H]3O[C@H]3O[C@H](CO)[C@@H](O)[C@H](O)[C@H]3NC(=O)[C@@H](N)CCCN=C(N)N)O[C@@H]2CO)[C@H](NC(=O)[C@@H](N)CCCN=C(N)N)[C@@H](O)[C@@H]1O | - | CXCR4 | flow cytometry | inhibition | 10 µM | 85% |
| Clc1nc2cc(Br)c(Br)cc2[nH]1 | - | Protein kinase A | - | IC50 | - | >30 µM |
| O=C(C1CCCCC1)N1C[C@H](CN2CCC(c3ccccc3)CC2)[C@@H](c2ccccc2)C1 | CCR5-D276A | CCR5 | radiometric | fold resistance | - | 3.13 |
| CCCCCCCCCCCCCCCCO[C@H](CCl)COP(=O)(O)OCC[N+](C)(C)C | - | Protein kinase C | - | inhibition | 19 µM | 78% |
| NC[C@@H]1O[C@H](O[C@H]2[C@@H](O)[C@H](O[C@@H]3[C@@H](O)[C@H](N)C[C@H](N)[C@H]3O[C@H]3O[C@H](CO)[C@@H](O)[C@H](O)[C@H]3N)O[C@@H]2CO)[C@H](N)[C@@H](O)[C@@H]1O | - | CXCR4 | flow cytometry | inhibition | 20 µM | 0% |
| CN1CC[C@H](c2c(O)cc(O)c3c(=O)cc(-c4ccccc4F)oc23)[C@H](O)C1 | - | Cyclin-dependent kinase 1 | kinase activity | IC50 | - | 0.123 µM |
| CNC(C)[C@H]1O[C@H](O[C@@H]2[C@@H](O)[C@H](O[C@@H]3OC[C@@](C)(O)[C@@H](NC)[C@@H]3O)[C@@H](NC(=O)[C@@H](N)CCCN=C(N)N)C[C@H]2NC(=O)[C@@H](N)CCCN=C(N)N)[C@H](NC(=O)[C@@H](N)CCCN=C(N)N)[C@@H](O)[C@@H]1O | - | CXCR4 | flow cytometry | inhibition | 10 µM | 84% |
| O=S(=O)(c1cccc2cnccc12)N1CCNCC1 | - | Protein kinase A | - | IC50 | - | 2 µM |
| NC(N)=NCCC[C@@H]1NC(=O)[C@@H](Cc2ccc(F)cc2)NC(=O)[C@@H](CCCN=C(N)N)NC(=O)CNC(=O)[C@H](Cc2ccc3ccccc3c2)NC1=O | - | CXCR4 | radiometric | IC50 | - | 0.094 µM |
| Cn1c2ccccc2c2c3c(c4c5ccccc5n(CC(F)F)c4c21)CNC3=O | - | cAMP-dependent protein kinase | - | IC50 | - | 2.4 µM |
| NC(N)=NCCC[C@@H]1NC(=O)[C@@H](Cc2ccc(O)cc2)NC(=O)CNC(=O)[C@H](Cc2ccc3ccccc3c2)NC(=O)[C@@H]2C[C@H](N=C(N)N)CN2C1=O | - | CXCR4 | radiometric | IC50 | - | >1 µM |
| OC[C@H]1O[C@@H](n2cnc3cc(Cl)c(Cl)cc32)[C@H](O)[C@@H]1O | - | Protein kinase C | - | IC50 | - | >30 µM |
| CN1Cc2c(c3c4ccccc4n(C)c3c3c2c2ccccc2n3CCC#N)C1=O | - | Protein kinase C | - | IC50 | - | >30 µM |
| O=C(O[C@@H]1Cc2c(O)cc(O)cc2O[C@@H]1c1ccc(O)c(O)c1)c1cc(O)c(O)c(O)c1 | - | CD4 | ELISA | IC50 | - | >200 µM |
| Cn1c2ccccc2c2c3c(c4c5ccccc5n(CCC#N)c4c21)CNC3=O | - | cGMP-dependent kinase | - | IC50 | - | 6.2 µM |
| C=CCN(C(=O)OCc1ccc([N+](=O)[O-])cc1)C1CCN(CC[C@](C)(CN(C)S(=O)(=O)c2ccccc2)c2ccccc2)CC1 | CCR5-W86A | CCR5 | radiometric | fold resistance | - | 76.5 |
| NC(N)=NCCCC(N)C(=O)NC[C@H]1O[C@H](O[C@H]2[C@H](O)[C@@H](O)[C@H](N)C[C@@H]2N)[C@H](N)[C@@H](O)[C@@H]1O | - | CXCR4 | flow cytometry | IC50 | - | >10 µM |
| C[C@@H]1NC(=O)[C@H](CCCN=C(N)N)NC(=O)[C@@H](Cc2ccc(O)cc2)NC(=O)CNC(=O)[C@H](Cc2ccc3ccccc3c2)NC1=O | - | CXCR4 | radiometric | IC50 | - | >1 µM |
| O=C(c1ccccc1Cl)N1C[C@H](CN2CCC(O)(CCCc3ccc(-c4nn[nH]n4)cc3)CC2)[C@@H](c2ccccc2)C1 | CCR5-W86A | CCR5 | radiometric | IC50 | - | 0.12 µM |
| NC(N)=NCCC[C@@H]1NC(=O)[C@H](CCCN=C(N)N)NC(=O)[C@@H](Cc2ccc(O)cc2)NC(=O)CNC(=O)[C@H](Cc2c[nH]c3ccccc23)NC1=O | - | CXCR4 | radiometric | IC50 | - | 0.013 µM |
| Cc1cc(SC2=C(O)C[C@@](CCc3ccc(O)cc3)(C(C)C)OC2=O)c(C(C)(C)C)cc1CO | - | Cytochrome P450 3A4 | - | inhibition | 100 µM | 36% |

For reference, 2 entries again:

{"SMILES": "NC(N)=NCCC[C@@H]1NC(=O)[C@@H](Cc2ccc(F)cc2)NC(=O)[C@@H](CCCN=C(N)N)NC(=O)CNC(=O)[C@H](Cc2ccc3ccccc3c2)NC1=O", "target": "CXCR4", "read by": "radiometric", "read-out": "IC50", "result": "0.094 µM"}
{"SMILES": "CN1Cc2c(c3c4ccccc4n(C)c3c3c2c2ccccc2n3CCC#N)C1=O", "target": "Protein kinase C", "read-out": "IC50", "result": ">30 µM"}